Data source: PubChem BioAssay AID1224833 (University of Georgia, 2016)

Screen: 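Human genes whose knock-down alters rotavirus replication in monkey cells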 (primary screen)
Cell system: monkey MA104 kidney cells
Knock-down reagent: siRNA pool against human genes, 50 nM
Duration: 48 h knock-down before infection; read 24 h after infection
Challenge: infection with rotavirus strain RV3 two days after transfection; infectious dose for this stage not given
Detection: 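z-score of rotavirus antigen signal per well, from a fluorescent immunoassay, relative to non-targeting control wells on the same plate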
Direction: z-score vs non-targeting control: higher = more rotavirus replication than with non-targeting control
Active means: In these data the active calls have z-score vs non-targeting control at about -1 or lower, or at about 1 or higher
Meaning of the calls: active = z-score beyond 1 either way; inactive = z-score within 1 of zero
The whole screen tested about 12,000 reagents; shown is an unselected part. About 5,600 of all reagents (46%) were called active. 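Active calls cover z-scores past 1 in both directions, so they include lowered as well as raised rotavirus replication.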

target	z-score vs non-targeting control	call
PARD3	-0.308	inactive
SLITRK4	-0.515	inactive
DYDC1	1.43	active
NAP1L3	-0.345	inactive
SETBP1	1.29	active
OR4X2	1.44	active
TNMD	0.328	inactive
OR13F1	0.555	inactive
EBF2	-1.85	active
IL1R1	-1.61	active
DCST2	0.536	inactive
CENPX	-0.446	inactive
ULBP2	-1.4	active
DYNAP	1.64	active
TAPBP	0.992	inactive
TRAM1L1	0.333	inactive
SEL1L	-1.72	active
ELP2	-0.905	inactive
CTCF	-2.11	active
FUNDC1	0.0235	inactive
MMP8	1.07	active
MANEAL	-0.883	inactive
HEBP2	0.976	inactive
NRIP3	-1.29	active
EFEMP1	-1.96	active
USP42	-0.988	inactive
GPX4	-0.507	inactive
OR9K2	-1.08	active
SLC25A15	-0.344	inactive
FAM131A	0.576	inactive
ARL4D	-0.661	inactive
ITSN2	-0.705	inactive
GDF6	-0.9	inactive
CHAF1A	-0.247	inactive
NCKAP1	0.0045	inactive
ARG2	-2.36	active
RTN2	1.36	active
POLD1	-1.15	active
ISG20	-1.53	active
CYB561D1	0.133	inactive
AVIL	0.259	inactive
TRAM2	-1.98	active
UTRN	-0.735	inactive
ELF4	-0.625	inactive
CSRNP1	-0.932	inactive
